Assays:
[1] = test system: Human immunodeficiency virus 1; assay: Antiviral activity against HIV1 3B infected in human CEM cells assessed as virus-induced giant cell formation after 4 days by microscopic analysis; settings: ccrf-cem, strain 3B
[2] = test system: Human immunodeficiency virus 2; assay: Antiviral activity against HIV2 ROD infected in human CEM cells assessed as virus-induced giant cell formation after 4 days by microscopic analysis; settings: ccrf-cem, strain ISOLATE ROD

## C[C@H](NP(=O)(Nc1ccn([C@H]2CS[C@@H](COP(=O)(N[C@@H](C)C(=O)OCc3ccccc3)N[C@@H](C)C(=O)OCc3ccccc3)O2)c(=O)n1)N[C@@H](C)C(=O)OCc1ccccc1)C(=O)OCc1ccccc1
[1]
  EC50: 16 µM
[2]
  EC50: 58 µM

## C[C@H](NP(=O)(Nc1ccn([C@H]2CS[C@@H](CO)O2)c(=O)n1)N[C@@H](C)C(=O)OCc1ccccc1)C(=O)OCc1ccccc1
[1]
  EC50: 0.28 µM
[2]
  EC50: 0.4 µM
